Pooled drug test results. Numbers come from NIAID ChemDB, via PubChem.

Shared fields: tests in culture; species: Candida albicans

ECn is the concentration giving n% inhibition of infection, replication or growth.

{"compound": "CC(C)C(N)CCC(C)C1CCC2C3CC=C4C[C@@H](O)CCC4(C)C3CCC12C", "strain or isolate": "B02630", "measure": "MIC90", "value": "1.56 µg/mL"}
{"compound": "Cc1ccc(C(C)C)cc1O", "strain or isolate": "H37", "measure": "MIC", "value": "0.16 µg/mL"}
{"compound": "Clc1cccc(-c2n[nH]c(CN3CCc4sccc4C3)n2)c1", "read by": "agar", "strain or isolate": "NCIM371", "measure": "MIC", "value": "50 µg/mL"}
{"compound": "COc1ccc(-c2ccc(C(=O)N[C@H]3CCCNC(=O)C4C[C@H](N)CN4C(=O)C(C(C)O)NC(=O)C(CCc4ccc(O)cc4)NC(=O)C4C[C@@H](O)CN4C(=O)C(C(C)O)NC3=O)cc2)cc1", "strain or isolate": "ATCC 62376", "measure": "MIC", "value": "6.25 µg/mL"}
{"compound": "C[C@@H](N1CCN(Cc2cn(Cc3ccc(F)cc3F)c3c(F)cccc23)CC1)[C@](O)(Cn1cncn1)c1ccc(F)cc1F", "read by": "resazurin", "strain or isolate": "ATCC 90028", "measure": "MIC80", "value": "0.125 µg/mL"}
{"compound": "Cc1c(C(=O)N(CCO)CCO)cc(-c2ccc([N+](=O)[O-])cc2)n1-c1ccc(Cl)cc1Cl", "strain or isolate": "20 strains", "measure": "MIC", "value": ">200 µg/mL"}
{"compound": "CC(Oc1ccccc1)c1n[nH]c(=S)n1-c1ccccc1", "strain or isolate": "NRRL Y-27077", "measure": "MIC", "value": "16 µg/mL"}
{"compound": "CO[C@@H]1C[C@H](C[C@@H](C)[C@@H]2CC(=O)[C@H](C)/C=C(\\C)[C@@H](O)[C@@H](OC)C(=O)[C@H](C)C[C@H](C)/C=C/C=C/C=C(\\C)[C@H](N(OC)C(=O)N(C)C)C[C@@H]3CC[C@@H](C)[C@@](O)(O3)C(=O)C(=O)N3CCCC[C@H]3C(=O)O2)CC[C@H]1C(=O)ON(C)O", "strain or isolate": "38247", "measure": "MIC", "value": ">100 µg/mL"}
{"compound": "C[C@@H](N1CCN(Cc2cn(Cc3ccc(Cl)cc3)c3ccccc23)CC1)[C@](O)(Cn1cncn1)c1ccc(F)cc1F", "read by": "resazurin", "strain or isolate": "ATCC 64548", "measure": "MIC80", "value": "0.125 µg/mL"}
{"compound": "OC(Cn1cncn1)(Cn1cncn1)c1ccc(F)cc1F", "read by": "agar", "strain or isolate": "NCIM3471", "measure": "MIC", "value": "5 µg/mL"}
{"compound": "CCCCCOc1ccc(-c2ccc(-c3ccc(C(=O)N[C@H]4CCCNC(=O)[C@@H]5C[C@H](NC(=O)c6ccccc6)CN5C(=O)[C@H]([C@@H](C)O)NC(=O)[C@H](CCc5ccc(O)cc5)NC(=O)[C@@H]5C[C@@H](O)CN5C(=O)[C@H]([C@@H](C)O)NC4=O)cc3)cc2)cc1", "strain or isolate": "ATCC 62376", "measure": "MIC", "value": "6.25 µg/mL"}
{"compound": "CC(Oc1ccc(Cl)cc1)c1n[nH]c(=S)n1-c1ccccc1", "strain or isolate": "NRRL Y-27077", "measure": "MIC", "value": "2 µg/mL"}
{"compound": "CCCCCOc1ccc(-c2ccc(-c3ccc(C(=O)N[C@H]4CCCNC(=O)C5CCN5C(=O)C(C(C)O)NC(=O)C(CCc5ccc(O)cc5)NC(=O)C5C[C@@H](O)CN5C(=O)C(C(C)O)NC4=O)cc3)cc2)cc1", "strain or isolate": "ATCC 62376", "measure": "MIC", "value": "3.12 µg/mL"}
{"compound": "Cc1ccc(OC(C)c2n[nH]c(=S)n2-c2ccccc2)cc1", "strain or isolate": "Clinical isolates", "measure": "MIC", "value": "16 µg/mL"}
{"compound": "CCCCCOc1ccc(-c2ccc(-c3ccc(C(=O)N[C@H]4CCCNC(=O)C5C[C@H](NS(C)(=O)=O)CN5C(=O)C(C(C)O)NC(=O)C(CCc5ccc(O)cc5)NC(=O)C5C[C@@H](O)CN5C(=O)C(C(C)O)NC4=O)cc3)cc2)cc1", "strain or isolate": "ATCC 62376", "measure": "MIC", "value": "0.2 µg/mL"}
{"compound": "Fc1ccc(Cc2nc(CN3CCc4sccc4C3)n[nH]2)cc1", "read by": "agar", "strain or isolate": "NCIM371", "measure": "MIC", "value": "15 µg/mL"}
{"compound": "CC(C)C(CCC(C)C1CC[C@@]2(C)C3=C(CCC12C)C1(C)CC[C@H](O)C(C)(C)C1CC3)N=[N+]=[N-]", "strain or isolate": "A.10231", "measure": "MIC90", "value": "100 µg/mL"}
{"compound": "CCOC(=O)c1csc(NC(=O)CSc2nnc(C(C)Oc3ccc(Cl)cc3)n2-c2ccccc2)n1", "strain or isolate": "NRRL Y-27077", "measure": "MIC", "value": ">16 µg/mL"}
{"compound": "CCCCCC(CCCCC)c1ccc(N2CCN(c3ccc(C(=O)N[C@H]4CCCNC(=O)C5C[C@H](N)CN5C(=O)C(C(C)O)NC(=O)C(CCc5ccc(O)cc5)NC(=O)C5C[C@@H](O)CN5C(=O)C(C(C)O)NC4=O)cc3)CC2)cc1", "strain or isolate": "ATCC CCH442", "measure": "MIC", "value": "0.78 µg/mL"}
{"compound": "OC(Cn1cncn1)(Cn1cncn1)c1ccc(F)cc1F", "strain or isolate": "2715", "measure": "MFC", "value": ">100 µg/mL"}
{"compound": "CC(Oc1ccc(Cl)cc1)c1nnc(SCC(=O)Nc2nccs2)n1-c1ccccc1", "strain or isolate": "NRRL Y-27077", "measure": "MIC", "value": "8 µg/mL"}
{"compound": "Clc1ccccc1-c1n[nH]c(CN2CCc3sccc3C2)n1", "read by": "agar", "strain or isolate": "NCIM371", "measure": "MIC", "value": "50 µg/mL"}
{"compound": "CO[C@@H]1C[C@H](C[C@@H](C)[C@@H]2CC(=O)[C@H](C)/C=C(\\C)[C@@H](O)[C@@H](OC)C(=O)[C@H](C)C[C@H](C)/C=C/C=C/C=C(\\C)[C@H](N(O)C(=O)N(C)C)C[C@@H]3CC[C@@H](C)[C@@](O)(O3)C(=O)C(=O)N3CCCC[C@H]3C(=O)O2)CC[C@H]1C(=O)ON(C)O", "strain or isolate": "62376", "measure": "MIC", "value": "100 µg/mL"}
{"compound": "C[C@@H](N1CCN(Cc2cn(Cc3ccc(F)cc3F)c3c(Cl)cccc23)CC1)[C@](O)(Cn1cncn1)c1ccc(F)cc1F", "read by": "resazurin", "strain or isolate": "ATCC 36082", "measure": "MIC80", "value": "0.125 µg/mL"}
{"compound": "CC(C)C(N)CCC(C)C1CC[C@@]2(C)C3=C(CCC12C)C1(C)CC[C@H](O)C(C)(C)C1CC3", "strain or isolate": "A13803", "measure": "MIC90", "value": "100 µg/mL"}
{"compound": "CCCCCCCCn1c(-c2ccc([N+](=O)[O-])cc2)cc(C(=O)N(CCO)CCO)c1C", "strain or isolate": "20 strains", "measure": "EC50", "value": ">200 µg/mL"}
{"compound": "CC(O)Cc1ccc(Cn2cc(CN3CCN([C@H](C)[C@](O)(Cn4cncn4)c4ccc(F)cc4F)CC3)c3cccc(F)c32)cc1", "read by": "resazurin", "strain or isolate": "ATCC 90028", "measure": "MIC80", "value": "2 µg/mL"}
{"compound": "CNC(CCC(C)C1CC[C@@]2(C)C3=C(CCC12C)C1(C)CC[C@H](O)C(C)(C)C1CC3)C(C)C", "strain or isolate": "A.10231", "measure": "MIC90", "value": "100 µg/mL"}
{"compound": "C[C@H]1[C@H](O)[C@@H](C)/C=C/C=C/C=C/C=C/C=C/C=C/C=C/[C@H](O[C@@H]2O[C@H](C)[C@@H](O)[C@H](N)[C@@H]2O)C[C@@H]2O[C@](O)(C[C@@H](O)C[C@@H](O)CC[C@H](O)[C@@H](O)C[C@@H](O)CC(=O)O[C@H]1C)C[C@H](O)[C@H]2C(=O)O", "strain or isolate": "ATCC64545", "measure": "MIC", "value": "0.5 µg/mL"}
{"compound": "Cc1c(C(=O)N2CCN(C)CC2)cc(-c2ccc([N+](=O)[O-])cc2)n1Cc1ccccc1", "strain or isolate": "20 strains", "measure": "MIC", "value": ">200 µg/mL"}
{"compound": "Cc1c(O)cccc1C(=O)N[C@@H](CSc1ccccc1)[C@H](O)CN1C[C@H]2CCCC[C@H]2C[C@H]1C(=O)NC(C)(C)C", "strain or isolate": "I45B", "measure": "MIC", "value": ">64 µg/mL"}
{"compound": "CCCCCCCCCCn1c(-c2ccc([N+](=O)[O-])cc2)cc(C(=O)N(CCO)CCO)c1C", "strain or isolate": "20 strains", "measure": "EC50", "value": ">200 µg/mL"}
{"compound": "CO[C@@H]1C[C@H](C[C@@H](C)[C@@H]2CC(=O)[C@H](C)/C=C(\\C)[C@@H](O)[C@@H](OC)C(=O)[C@H](C)C[C@H](C)/C=C/C=C/C=C(\\C)[C@H](N(O)C(N)=O)C[C@@H]3CC[C@@H](C)[C@@](O)(O3)C(=O)C(=O)N3CCCC[C@H]3C(=O)O2)CC[C@H]1C(=O)ON(C)O", "strain or isolate": "10231", "measure": "MIC", "value": "100 µg/mL"}
{"compound": "Cc1c(C(=O)N2CCN(C)CC2)cc(-c2ccc([N+](=O)[O-])cc2)n1-c1ccccc1Cl", "strain or isolate": "20 strains", "measure": "EC50", "value": ">200 µg/mL"}
{"compound": "Clc1ccc(-c2n[nH]c(CN3CCc4sccc4C3)n2)cc1", "read by": "agar", "strain or isolate": "NCIM371", "measure": "MIC", "value": "25 µg/mL"}
{"compound": "CCCCCCCCn1c(-c2ccc([N+](=O)[O-])cc2)cc(C(=O)N2CCN(C)CC2)c1C", "strain or isolate": "20 strains", "measure": "EC50", "value": ">200 µg/mL"}
{"compound": "CO[C@@H]1C[C@H](C[C@@H](C)[C@@H]2CC(=O)[C@H](C)/C=C(\\C)[C@@H](O)[C@@H](OC)C(=O)[C@H](C)C[C@H](C)/C=C/C=C/C=C(\\C)[C@@H](N(O)C(=O)N(C)C)C[C@@H]3CC[C@@H](C)[C@@](O)(O3)C(=O)C(=O)N3CCCC[C@H]3C(=O)O2)CC[C@H]1C(=O)ON(C)O", "strain or isolate": "579A", "measure": "MIC", "value": "100 µg/mL"}

A second listing of 4 rows from above:

{"compound": "CO[C@@H]1C[C@H](C[C@@H](C)[C@@H]2CC(=O)[C@H](C)/C=C(\\C)[C@@H](O)[C@@H](OC)C(=O)[C@H](C)C[C@H](C)/C=C/C=C/C=C(\\C)[C@H](N(OC)C(=O)N(C)C)C[C@@H]3CC[C@@H](C)[C@@](O)(O3)C(=O)C(=O)N3CCCC[C@H]3C(=O)O2)CC[C@H]1C(=O)ON(C)O", "strain or isolate": "38247", "measure": "MIC", "value": ">100 µg/mL"}
{"compound": "CO[C@@H]1C[C@H](C[C@@H](C)[C@@H]2CC(=O)[C@H](C)/C=C(\\C)[C@@H](O)[C@@H](OC)C(=O)[C@H](C)C[C@H](C)/C=C/C=C/C=C(\\C)[C@H](N(O)C(=O)N(C)C)C[C@@H]3CC[C@@H](C)[C@@](O)(O3)C(=O)C(=O)N3CCCC[C@H]3C(=O)O2)CC[C@H]1C(=O)ON(C)O", "strain or isolate": "62376", "measure": "MIC", "value": "100 µg/mL"}
{"compound": "CNC(CCC(C)C1CC[C@@]2(C)C3=C(CCC12C)C1(C)CC[C@H](O)C(C)(C)C1CC3)C(C)C", "strain or isolate": "A.10231", "measure": "MIC90", "value": "100 µg/mL"}
{"compound": "C[C@H]1[C@H](O)[C@@H](C)/C=C/C=C/C=C/C=C/C=C/C=C/C=C/[C@H](O[C@@H]2O[C@H](C)[C@@H](O)[C@H](N)[C@@H]2O)C[C@@H]2O[C@](O)(C[C@@H](O)C[C@@H](O)CC[C@H](O)[C@@H](O)C[C@@H](O)CC(=O)O[C@H]1C)C[C@H](O)[C@H]2C(=O)O", "strain or isolate": "ATCC64545", "measure": "MIC", "value": "0.5 µg/mL"}

Lines come from different laboratories, so protocols vary. A number after MIC or MFC names an inhibition level or a share of isolates.